Pooled drug test results. Numbers come from NIAID ChemDB, via PubChem.

Shared fields: whole-cell or culture tests; organism: Mycobacterium avium complex; endpoint: MIC

An empty or dashed field is not shown.

smiles	strain or isolate	method	setting	result
Cc1ccn2c(C(=O)NCc3ccc4c(c3)CCO4)c(C)nc2c1	Clinical isolate 224	MTT		4 µg/mL
CCNC(=O)O[C@H]1C(O[C@@H]2[C@@H](C)[C@H](O[C@H]3C[C@@](C)(OC)[C@@H](OC(C)=O)[C@H](C)O3)[C@@H](C)C(=O)O[C@H](CC)[C@@](C)(O)[C@H](O)[C@@H](C)/C(=N/OCCCC3CCCCC3)[C@H](C)CC2(C)O)O[C@H](C)C[C@@H]1N(C)C	20096			>50 µg/mL
CCCCCCC(C)c1ccc2c(c1)C(=O)c1nc3ccncc3c(=O)n1-2	19075			0.06 µg/mL
CN(C)C/C=C(\c1ccc(N)cc1)c1ccc(-c2ccc(Br)cc2)cc1				19.6 µg/mL
CCCCCCCCO[C@@H]1O[C@@H](C(COCc2ccccc2)O[C@@H]2O[C@@H](C(COC(C)=O)OC(C)=O)[C@H](OC(C)=O)[C@H]2OC(C)=O)[C@H](OCc2ccccc2)[C@H]1OCc1ccccc1	NJ211			>128 µg/mL
CC(C)N=C(N)/N=C(\N)NOCCCOc1cc(Cl)c(Cl)cc1Cl	189			32 µg/mL
O=C1c2cc(F)ccc2-n2c1nc1ccncc1c2=O	19075			5 µg/mL
COc1ccc(/C(C)=N/NC(=O)c2ccncc2)cc1F	12592 PI			>20 µg/mL
CC(C)(C)NC(=O)OCCN=c1ssc2ccccc12	ATCC 15769			8 µg/mL
C[C@H]1C[C@H](N)CN1c1cc2c(cc1F)c(=O)c(C(=O)O)cn2-c1ccc(F)cc1F	ATCC 35718			>8 µg/mL
CCCCN(CCCC)CCC(O)c1cc2c(Cl)cc(Cl)cc2c2cc(C(F)(F)F)ccc12				4 µg/mL
CCN=c1cc2n(-c3ccc(Cl)cc3)c3ccccc3nc-2cc1Nc1ccc(Cl)cc1	211			0.25 µg/mL
COc1cc(NC(C)CSCCN)c2nccc(C)c2c1Oc1cccc(C(F)(F)F)c1	5 clinical isolates			>16 µg/mL
CC[C@H]1OC(=O)[C@H](C)[C@@H](O[C@H]2C[C@@](C)(OC)[C@@H](O)[C@H](C)O2)[C@H](C)[C@@H](O[C@@H]2O[C@H](C)C[C@H](N(C)C)[C@H]2O)[C@](C)(O)C[C@@H](C)/C(=N\OCOCCOC)[C@H](C)[C@@H](O)[C@]1(C)O	N-93043			16 µg/mL
NNC(=O)c1ccncc1	17 strains			>10 µg/mL
Cc1c(CN2CCN(C)CC2)cc(-c2ccccc2F)n1-c1ccccc1F	103317			>16 µg/mL
O=Cc1ccc2c(c1)C(=O)c1nc3ccncc3c(=O)n1-2	19075			5 µg/mL
CC[C@H]1OC(=O)[C@H](C)[C@@H](O[C@H]2C[C@@](C)(OC)[C@@H](O)[C@H](C)O2)[C@H](C)[C@@H](O[C@@H]2O[C@H](C)C[C@H](N(C)C)[C@H]2O)[C@](C)(OC)C[C@@H](C)C(=O)[C@H](C)[C@@H](O)[C@]1(C)O				4 µg/mL
CC(C)(C)NC(=O)OCCn1sc2ccccc2c1=S	AN1			2 µg/mL
CC[C@H]1OC(=O)[C@H](C)[C@@H](O[C@H]2C[C@@](C)(OC)[C@@H](O)[C@H](C)O2)[C@H](C)[C@@H](O[C@@H]2O[C@H](C)C[C@H](N(C)C)[C@H]2O)[C@](C)(O)C[C@@H](C)/C(=N\OCOCCOC)[C@H](C)[C@@H](O)[C@]1(C)O	Isolate 90-0827			8 µg/mL
N#Cc1ccnc(SCc2ccc(Br)cc2)c1	MY330/88			250 µM
CCCCCCCCO[C@@H]1O[C@@H](C(CO[C@@H]2O[C@@H](C(O)CO)[C@H](O)[C@H]2O)OC)[C@H](OC)[C@H]1OC	NJ3404			>128 µg/mL
NC[C@H]1O[C@H](O[C@H]2[C@H](O)[C@@H](O[C@H]3O[C@H](CO)[C@@H](O)[C@H](N)[C@H]3O)[C@H](N)C[C@@H]2N)[C@H](N)C[C@@H]1O	ATCC 35718			8 µg/mL
CC[C@H]1OC(=O)[C@H](C)[C@@H](O[C@H]2C[C@@](C)(OC)[C@@H](O)[C@H](C)O2)[C@H](C)[C@@H](O[C@@H]2O[C@H](C)C[C@H](N(C)C)[C@H]2O)[C@](C)(OC)C[C@@H](C)C(=O)[C@H](C)[C@@H](O)[C@]1(C)O	ATCC 35718			1 µg/mL
CN(C)C/C=C(\c1ccc(I)cc1)c1ccc(-c2ccc(Br)cc2)cc1				19 µg/mL
CO[C@H]1/C=C/O[C@@]2(C)Oc3c(C)c(O)c4c(O)c(c5c(c4c3C2=O)NC2(CCN(CC(C)C)CC2)N=5)=NC(=O)/C(C)=C\C=C\[C@H](C)[C@H](O)[C@@H](C)[C@@H](O)[C@@H](C)[C@H](OC(C)=O)[C@@H]1C	ATCC49601			0.5 µg/mL
CC[C@H]1OC(=O)[C@H](C)[C@@H](O[C@H]2C[C@@](C)(OC)[C@@H](O)[C@H](C)O2)[C@H](C)[C@@H](O[C@@H]2O[C@H](C)C[C@H](N(C)C)[C@H]2O)[C@](C)(OC)C[C@@H](C)C(=O)[C@H](C)[C@@H](O)[C@]1(C)O	LA-1			4 µg/mL
CC(C)N=c1cc2n(-c3ccc(Cl)cc3)c3ccccc3nc-2cc1Nc1ccc(Cl)cc1				0.1 µg/mL
COc1ccc(NC(=O)c2ccc3cc(O)ccc3c2)cc1	Clinical isolate CIT19/06 (MAC)	broth dilution		102 µM
CC[C@H]1OC(=O)[C@H](C)[C@@H](O[C@H]2C[C@@](C)(OC)[C@@H](O)[C@H](C)O2)[C@H](C)[C@@H](O[C@@H]2O[C@H](C)C[C@H](N(C)C)[C@H]2O)[C@](C)(O)C[C@@H](C)CN(C)[C@H](C)[C@@H](O)[C@]1(C)O	E			8 µg/mL
C/C(=N\NC(=O)c1ccncc1)c1cccc(Br)c1	12592 PI			>20 µg/mL
NC(=S)c1ccnc(SCc2c(F)cccc2[N+](=O)[O-])c1	MY330/88			62 µM
Cc1c(CN2CCN(C)CC2)cc(-c2ccccc2F)n1-c1cccc2ccccc12	103317			4 µg/mL
CCCNC(=O)OCCn1sc2ccccc2c1=O	ATCC 15769			>32 µg/mL
CCCCCCCCO[C@@H]1O[C@H]([C@@H](COCc2ccccc2)O[C@H]2O[C@H](CO)[C@@H](O)[C@@H]2O)[C@H](OCc2ccccc2)[C@H]1OCc1ccccc1	NJ211			>128 µg/mL
CCCCN(CCCC)C[C@@H](O)c1cc2c(Cl)cc(Cl)cc2c2cc(C(F)(F)F)ccc12	5 clinical isolates			4–8 µg/mL
CN(C)C/C=C(/c1ccc(Br)cc1)c1ccc(-c2ccc(Br)cc2)cc1				34 µg/mL
OC[C@H]1O[C@H](CSc2ccccc2)[C@@H](O)[C@@H]1O	3 strains			>64 µg/mL
CC(C)NC(=O)OCCn1sc2ccccc2c1=O	AN1			16 µg/mL
CN(C)C/C=C(/c1ccc(-c2ccc(Br)cc2)cc1)c1ccc(S(C)(=O)=O)cc1				68 µg/mL
CO/C(=N\N=C\c1cccc(Cl)c1)c1ccncc1	12592 PI			>10 µg/mL
CCc1ccc2c(c1)C(=O)c1nc3ccncc3c(=O)n1-2	19075			1 µg/mL
CCCCCCCCO[C@H]1OC([C@@H](COCc2ccccc2)O[C@H]2O[C@H]([C@@H](O)CO)[C@@H](O)[C@@H]2O)[C@@H](OCc2ccccc2)[C@@H]1OCc1ccccc1	NJ3404			>128 µg/mL
C/C=C/C/C=C/CCC(=O)[C@H]1O[C@H]1C(N)=O				6.25 µg/mL
CCCCCCCCO[C@@H]1O[C@H]([C@@H](CO)O[C@H]2O[C@H](CO)[C@@H](O)[C@@H]2O)[C@H](O)[C@H]1O	NJ3404			>128 µg/mL
CC[C@H]1OC(=O)[C@H](C)[C@@H](O[C@H]2C[C@@](C)(OC)[C@@H](O)[C@H](C)O2)[C@H](C)[C@@H](O[C@@H]2O[C@H](C)C[C@H](N(C)C)[C@H]2O)[C@](C)(OC)C[C@@H](C)C(=O)[C@H](C)[C@@H](O)[C@]1(C)O	ATCC 13950			1 µg/mL
CCCCCCCCS(=O)(=O)CC(N)=O				25 µg/mL
CCCCNC(=O)OCCn1sc2ccccc2c1=O	AN3			16 µg/mL
CO[C@H]1/C=C/O[C@@]2(C)Oc3c(C)c(O)c4c(O)c(c(/C=N/N5CCN(C/C=C/c6ccccc6)CC5)c(O)c4c3C2=O)NC(=O)/C(C)=C\C=C\[C@H](C)[C@H](O)[C@@H](C)[C@@H](O)[C@@H](C)[C@H](OC(C)=O)[C@@H]1C	N-444			0.78 µg/mL
CC(C)N=c1cc2n(-c3ccc(Cl)cc3)c3ccccc3nc-2cc1Nc1ccc(Cl)cc1	101			0.25 µg/mL
CCCCN(CCCC)C[C@H](O)c1cc2c(Cl)cc(Cl)cc2c2cc(C(F)(F)F)ccc12	101 (clarithromycin-resistant)			8 µg/mL
O=C(O)c1ccccn1	N-444			3000 µg/mL
NC[C@@H]1O[C@H](O[C@H]2[C@@H](O)[C@H](O[C@@H]3[C@@H](O)[C@H](N)C[C@H](N)[C@H]3O[C@H]3O[C@H](CN)[C@@H](O)[C@H](O)[C@H]3N)O[C@@H]2CO)[C@H](N)[C@@H](O)[C@@H]1O	ATCC 35718			32 µg/mL
C[C@@H]1CN(c2c(F)c(N)c3c(=O)c(C(=O)O)cn(C4CC4)c3c2F)C[C@H](C)N1	Isolate 90-1295			1 µg/mL
CCNC(=O)OCCN=c1ssc2ccccc12	ISS 486			4 µg/mL
Cc1ccc2nc(C)c(C(=O)NCc3ccc(C(F)(F)F)cc3)n2c1	Clinical isolate 224	MTT		0.06 µg/mL
COc1cccc2c1[n+]([O-])c1cccc(O)c1[n+]2[O-]	100			4 µg/mL
CCNC(=O)OCCn1sc2ccccc2c1=O	AN3			16 µg/mL
CCCCCCCCO[C@H]1O[C@H](CO[C@H]2O[C@H](CN(CC3CCCCC3)CC3CCCCC3)[C@@H](O)[C@@H]2O)[C@@H](O)[C@@H]1O	NJ211			16 µg/mL
Cc1c(CN2CCSCC2)cc(-c2ccccc2Cl)n1-c1ccccc1F	103317			>16 µg/mL
CCCCCCCN(CCCCCCC)CC(O)c1cc2ccccc2c2cc(Br)ccc12	5 clinical isolates			>32 µg/mL
CCCCNC(=O)OCCN=c1ssc2ccccc12	AN2			4 µg/mL
N#Cc1ccnc(SCc2ccc(Cl)cc2)c1	MY330/88			>500 µM
NC1CCN(c2c(F)cc3c(=O)c(C(=O)O)cn(C4CC4)c3c2Cl)C1	ATCC 35718			>8 µg/mL
N#Cc1ccnc(SCc2cccc(Br)c2)c1	MY330/88			125 µM
CC1(C)N=C(N)N=C(N)N1OCCCOc1cc(Cl)c(Cl)cc1Cl	JWT005A			1 µg/mL
OCCN=c1ssc2ccccc12	AN2			8 µg/mL
CO/C(=N\N=C\c1ccc(OC)cc1OC)c1ccncc1	12592 PI			>5 µg/mL
CC1(C)CC(N=c2cc3n(-c4ccc(Cl)c(Cl)c4)c4ccccc4nc-3cc2Nc2ccc(Cl)c(Cl)c2)CC(C)(C)N1			inside macrophages	0.5 µg/mL

The last 6 rows once more:

smiles	strain or isolate	method	setting	result
NC1CCN(c2c(F)cc3c(=O)c(C(=O)O)cn(C4CC4)c3c2Cl)C1	ATCC 35718			>8 µg/mL
N#Cc1ccnc(SCc2cccc(Br)c2)c1	MY330/88			125 µM
CC1(C)N=C(N)N=C(N)N1OCCCOc1cc(Cl)c(Cl)cc1Cl	JWT005A			1 µg/mL
OCCN=c1ssc2ccccc12	AN2			8 µg/mL
CO/C(=N\N=C\c1ccc(OC)cc1OC)c1ccncc1	12592 PI			>5 µg/mL
CC1(C)CC(N=c2cc3n(-c4ccc(Cl)c(Cl)c4)c4ccccc4nc-3cc2Nc2ccc(Cl)c(Cl)c2)CC(C)(C)N1			inside macrophages	0.5 µg/mL

Two numbers with a dash give a range or band. Conditions beyond the fields shown may differ between rows.